Laboratory results from US20260069689A1, “ANTI-SARS-COV-2-SPIKE GLYCOPROTEIN ANTIBODIES AND ANTIGEN-BINDING FRAGMENTS” (Regeneron, published 2026).
Changes are numbered by the printed parent chain.

B1: mAb14248 (antibody, V domains shown)
VH: QVQLVQSGAEVKKPGASVKVSCKVSGYTLTELSIHWVRQAPGKGLEWMGGFNPEDAETIYAQKFQGRVTMTEDTSTDTAYMELRALRFEDTAVYYCATAFAVVSVGTGLNYNYYYGMDVWGQGTTVTVSS
VL: not shown
B2: mAb14232 (antibody, V domains shown)
VH: QITLKESGPTLVKPTQTLTLTCTFSGFSLSASGVGVGWIRQPPGKALEWLALIYWDDDKRYSPSLKSRLTITKDTSKNQVVLTMTNMDPVDTATYYCAQHKVATIFDYWGQGTLVTVSS
VL: QSALTQPPSASGSPGQSVTISCTATSSDVGNYNYVSWYQQHPGKAPKLMIYEVTKRPSGVPDRFSGSKSGNTASLTVSGLQAEDEADYYCSSYAGSWGVFGGGTKLTVLG
B3: mAb14284 (antibody, V domains shown)
VH: B2 VH with L29F, A31T, A46T, Y96F, Q99H, K101G, V102I, A103P, D107G, T113A
VL: QSALTQPASVSGSPGQSITISCTGTSSDLGVFNYVSWYQQHPGKAPKLMIYEVTNRPSGVSNRFSGSKSGNTASLTISGLQAEDEADYYCSSYTTSSTVFGGGTKLTVLG
B4: mAb14247 (antibody, V domains shown)
VH: B2 VH with A31T, G33A, V80L, M87V, Q99H, K101T, V102I, A103Q, T104L
VL: QSALTQPASVSGSPGQSITISCTATSSDVGNYNYVSWYQQHPGKAPKLMIYEVSNRPSGVSNRFSGSKSGNTASLTISGLQAEDEADYYCSSYTSSSTPLVFGGGTKLTVLG
B5: mAb14258 (antibody, V domains shown)
VH: QLQLQESGPGLVKPSETLSLICTGSGDSISSSHYYWGWIRQPPGKGLEWIGSTYFSGSTYYNPSLKSRVSISVDTSKNQVSLKLISVTAADTAVYYCAREMGATLGDYWGPGTLVTVSS
VL: QSVLTQPPSASGTPGQRVTISCSGSSSNIGNNYVYWYQQFPGTTPRLLIYRNNERPSGVPDRFSGSKSGTSASLVISGLRSEDEADYYCAAWDDSLSAHYVFGTGTKVTVLG
B6: mAb15150 (antibody, V domains shown)
VH: EVQLVETGGGLIQPGGSLRLSCAAPGFIVSSNYMSWVRQAPGKGLEWVSLLYPGGSTYYADSVKGRFTISRDNSKNTLYLQMNSLRADDTAVYYCARVLPIVEDHFDYWGQGTLVTVSS
VL: DIQLTQSPSFLSASVGDRVTITCRASQGMSSYLAWYQKKPGKAPKLLIYGATILQSGVPSRFSGSGSGTEFTLTISSLQPEDFATYYCQQLNSDPLYMYTFGQGTKLEIKR
B7: mAb14289 (antibody, V domains shown)
VH: QVQLVQSGPEVKKPGASVKVSCKASGYTFTSYAISWVRQAPGQGLEWMGWISAYNGNTNYAQKLQGRVTMTTDTFTSTAYMELRSLRSDDTAVYYCAVPADHITFDYWGQGTLVTVSS
VL: EIVLTQSPGTLSLSPGERATLSCRASQSVSSYLAWYQQKPGQAPRLLIHGASSRATGIPDRFSGSGSGTDFTLTISRLEPEDFAVYYCQQYGSSFLTFGGGTKVEIKR
B8: mAb14231 (antibody, V domains shown)
VH: EVQLVESGGGLVQPGGSLRLSCAASGFTFSSYWMSWVRQAPGKGLEWVANIKQDGSEKYYVDSVKGRFTISRDNAKNSLYLQMNSLRAEDTAVYYCARAPGNFDWLFRSDYYYGMDVWGQGTTVTVSS
VL: not shown
B9: mAb14283 (antibody, V domains shown)
VH: QVQLQESGPGLVKPSGTLSLTCDVSGGSISSNNWWSWVRQRPGKGLQWIGEIYHNENTNYNPSLKSRVIMSIDKSKNQFSLKLTSVTAADTAVYYCARGDVLDWFDPWGQGTLVTVSS
VL: QSALTQPASVSGSPGQSTTISCTGTSSDVGGYNYVSWYQQYPGKAPKLMIYDVTNRPSGVSHRFSGSKSGNTASLTISGLQAEDEADYYCSSYTSSSTVIFGGGTKLTVLG
B10: mAb14257 (antibody, V domains shown)
VH: EVQLVESGGGLVQPGGSLRLSCAASGFTVSRSYMNWVRQAPGKGLEWVSVVFTGGTTKHTDSVKGRFTISRDNSMNTLYLQMNSLRPEDTAVYYCARVAIVETTGAFDIWGQGTMVTVSS
VL: QSVLTQPPSVSGAPGQRVTISCTGTSSNIGADFDVHWYQQFPGTAPKLLIYGHTNRPSGIPDRFSGSKSGTSASLAITGLQAEDEADYYCQSYDSSLSGSVVFGGGTKLTVLG
B11: mAb14249 (antibody, V domains shown)
VH: QVQLVQSGAEVKKPGASVKVSCKASGYTFTGYYMHWVRQAPGQGLEWMGRINPYSGGTNYAQKFQGRVTMTRDTSISTAYMELSRLRSDDTAVYYCASGFEPHDYGDPNLPPWGQGTLVTVSS
VL: not shown
B12: mAb14255 (antibody)
heavy: not shown
light: QSALTQPASVSGSPGQSITISCTGTSSDVGSYNLVSWYQQHPGKAPKLMIYEDSKRPSGVANPFSGSKSGNTASLTISGLQAEDEADYYCSSYAGSSTWVFGGGTKLTVLGQPKAAPSVTLFPPSSEELQANKATLVCLISDFYPGAVTVAWKADSSPVKAGVETTTPSKQSNNKYAASSYLSLTPEQWKSHRSYSCQVTHEGSTVEKTVAPTECS
B13: mAb14288 (antibody, V domains shown)
VH: EVQLVESGGGLVQPGGSLRLSCAASGFTLSSYDMHWVRQVIGKGLEWVSTIGTSGDTYYPGSVKGRFTISRENAKNSLYLQMNSLRAGDTAVYYCARGGVPTTIWSGPYYYYMDVWGKGTTVTVSS
VL: QSVLTQPPSVSAAPGQKVTISCSGSSSNIGNNYVSWYQQLPGTAPKLLIYENNKRPSGIPDRFSGSKSGTSATLGITGLQTGDEADYYCGTWDSSLSAGQGVFGGGTKLTVLG
B14: mAb14230 (antibody, V domains shown)
VH: EVQLVESGGGLIQPGRSLRLSCAASGFTFDDYAMHWVRQAPGKGLEWVSGISWNSVSIDYADSVKGRFTISRDNAKNSLYLQMTSLTVEDTALYYCAKAFGYETLTGSDYFAYWGPGTLVTVSS
VL: EIVLTQSPGTLSLSPGERATLSCRASQTVISTYLAWYQQKPGQSPRLLIYGASSRATGIPDRFSGSGSGTDFTLTISRLEPEDFAVYYCQQYGSSPQLTFGGGTKVEIKR
B15: mAb14280 (antibody, V domains shown)
VH: QVQLVQSGAEVKKPGASVRVSCKASGYTFTGNYIHWVRQAPGQGLEWMAWINPNSGGKNYAQKFQGRVTLTRDTSVNTAYMELSRLRSDDTAMYYCARDVNYNILTGPGGLWGQGTLVTVSS
VL: QSALTQPPSASGSPGQSVTISCTGTSSDVGGYNFVSWYQQHPGKAPKLMIYEVSKRPSGVPDRFSGSKSGNTASLTVSGLQAEDEADYYCSSYAGSNNFVFGTGTKVTVLG
B16: mAb14233 (antibody, V domains shown)
VH: QVQLVESGGGVVQPGRSLRLSCAASGFIFSSYGMHWVRQAPGKGLEWVAVIWYDGSNKFYADSVKGRFTISRDNSKNTLYLQVNSLRAEDTAVYYCARAVQGDWYFDHWGQGTLVTVSS
VL: SYELTQPPSVSVSPGQTARITCSGDVLAKLYAYWYQHKPGQAPVLVIYKDSERPSGIPERFSGSSSGTTVTLTISGVQAEDEADYYCQSADSSGSLWVFGGGTKLTVLG
B17: mAb14281 (antibody, V domains shown)
VH: QVQLVQSGADVKKPGASVKVSCKTSGYIFTGYYIHWVRQAPGQGLEWMGWINPNSGGTNSAQKFQGRVTMTRDTSISTVYMELSRLRSDDTAVYYCAKSNSFSVLDYNFDYWGQGTLVTVSS
VL: SSELTQDPAVSVALGQTVRITCQGDSLRSYYASWYQQKPGQAPVLVIYDKNNRPSGIPDRFSGSSSGNTASLTITGAQAEDEADYYCNSRDSSRNHLVVFGGGTKLTVLG
B18: mAb14235 (antibody, V domains shown)
VH: QITLKESGPTLVKPTQTLTLTCTFSGFSLNTGGVGVGWIRQPPGNALEWLALIYWDDDKRYNPSLKTRLTISKDTSKNQVVLTMTNMDPVDTATYFCAHLTIAVIVDFWGQGTLVTVSS
VL: B3 VL with G24A, L29V, V31T, F32Y, Y38F, Q40H, S96T, T98I
B19: mAb14259 (antibody, V domains shown)
VH: EVQLVESGGGLVQPGGSLRLSCAASGFPFSTYEMNWVRQAPGKGLEWVSYISSSGNTIYYADSVKGRFTISRDNAKNSLYLQMNTLRAEDTAVYYCARDAVRDHDILTDPATFDPWGQGTLVTVSS
VL: DIVMTQSPLSLPVTPGEPASISCRSSQTLLHSNGYNYLDWYLQKPGQSPQLLIHLGSNRASGVPDRFSGSGSVTDFTLKISRVEAEDVGVYYCMQALQTPYTFGQGTKLEIKR
B20: mAb14260 (antibody, V domains shown)
VH: EVQLVESGGGLVQPGGSLRLSCAASGFTFSIYEMNWVRQAPGKGLEWVSYITSSGFTIYYADSVKGRFTISRDNAKNSLYLQMHSLRAEDTAVYYCATSSSSGYYFDYWGQGTLVTVSS
VL: not shown
B21: mAb14285 (antibody, V domains shown)
VH: QVQLVQSGAEVKKPGASVKVSCKASGYTFTGYFIHWVRQAPGQGLEWMGWISPISGGTNYAQKFQGRVTVTRDTSITTAYMELSRLTSDDTAVYHCAREGGTWKGDFDYWGQGTLVTVSS
VL: QSALTQPASVSGSPGQSITISCTGTSSDVESYNLVSWYQQHPGKAPKLMIYEGSKRPSGVSNRFSGSKSGNTASLTISGLQAEDEADYYCSSYAGSSTWVFGGGTKLTVLG
B22: mAb14287 (antibody, V domains shown)
VH: QVQLVQSGAEVKKPGSSVKVSCKASGGTFSNNAISWVRQAPGQGLEWMGKIIPILGIGGDAQKFQGRFTITADKSTSTAYMELSSLRSEDTAVYYCANSGDSRPHAFDIWGQGTMVTVSS
VL: B21 VL with E30G, G53V, S97R, T98R, W99E
B23: mAb14282 (antibody, V domains shown)
VH: QVQLVQSGAEVKKPGASVKVSCKASGYIFTDHYMHWVRQAPGQGLEWMGWINPNSGATNYAQNFQGRVTMTRDTSIITVYMELSRLRSDDTAVYYCARDSSPYMIRYTMDVWGQGTTITVSS
VL: QSALTQPASVSGSPGQSITISCTGTSSDVGSYNLVSWYQQHPGKAPKLMIYELTKRPSGVSNRFSGSKSGNTASLTISGLQAEDEADYYCSSYRGSVTDVVFGGGTKLTVLG

Each binder was assayed against SARS-CoV-2 spike protein, wild-type (Wuhan-Hu-1) or D614G control (SARS-CoV-2) (assay: cell-based or functional assay).
With B1 the “IC50 (pseudoparticle neutralization)” value was 0.062 nM.
For B2, the “IC50 (pseudoparticle neutralization)” value was 0.0635 nM.
For B3, the “IC50 (pseudoparticle neutralization)” value was 0.0314 nM.
For B4, the “IC50 (pseudoparticle neutralization)” value was 0.058 nM.
In the case of B5, the “IC50 (pseudoparticle neutralization)” value is reported as 0.0557 nM.
In the case of B6, the “IC50 (pseudoparticle neutralization)” value is reported as 0.0621 nM.
For B7, the “IC50 (pseudoparticle neutralization)” value was 0.0402 nM.
B8 was tested, and the “IC50 (pseudoparticle neutralization)” value was 1.02 nM.
In the case of B9, the “IC50 (pseudoparticle neutralization)” value is reported as 0.0549 nM.
In the case of B10, the “IC50 (pseudoparticle neutralization)” value is reported as 0.0291 nM.
In the case of B11, the “IC50 (pseudoparticle neutralization)” value is reported as 0.162 nM.
B12 was tested, and the “IC50 (pseudoparticle neutralization)” value was 0.0343 nM.
In the case of B13, the “IC50 (pseudoparticle neutralization)” value is reported as 1.38 nM.
In the case of B14, the “IC50 (pseudoparticle neutralization)” value is reported as 0.0241 nM.
For B15, the “IC50 (pseudoparticle neutralization)” value was 0.0286 nM.
For B16, the “IC50 (pseudoparticle neutralization)” value was 0.0542 nM.
With B17 the “IC50 (pseudoparticle neutralization)” value was 0.0335 nM.
With B18 the “IC50 (pseudoparticle neutralization)” value was 0.0338 nM.
B19 was tested, and the “IC50 (pseudoparticle neutralization)” value was 0.0372 nM.
In the case of B20, the “IC50 (pseudoparticle neutralization)” value is reported as 0.0928 nM.
In the case of B21, the “IC50 (pseudoparticle neutralization)” value is reported as 0.0325 nM.
In the case of B22, the “IC50 (pseudoparticle neutralization)” value is reported as 0.199 nM.
B23 was tested, and the “IC50 (pseudoparticle neutralization)” value was 0.0327 nM.
